Sequences and labels used below:
B1: bovine lactoferrin (Lf) (natural protein)
chain: APRKNVRWCTISQPEWFKCRRWQWRMKKLGAPSITCVRRAFALECIRAIAEKKADAVTLDGGMVFEAGRDPYKLRPVAAEIYGTKESPQTHYYAVAVVKKGSNFQLDQLQGRKSCHTGLGRSAGWIIPMGILRPYLSWTESLEPLQGAVAKFFSASCVPCIDRQAYPNLCQLCKGEGENQCACSSREPYFGYSGAFKCLQDGAGDVAFVKETTVFENLPEKADRDQYELLCLNNSRAPVDAFKECHLAQVPSHAVVARSVDGKEDLIWKLLSKAQEKFGKNKSRSFQLFGSPPGQRDLLFKDSALGFLRIPSKVDSALYLGSRYLTTLKNLRETAEEVKARYTRVVWCAVGPEEQKKCQQWSQQSGQNVTCATASTTDDCIVLVLKGEADALNLDGGYIYTAGKCGLVPVLAENRKSSKHSSLDCVLRPTEGYLAVAVVKKANEGLTWNSLKDKKSCHTAVDRTAGWNIPMGLIVNQTGSCAFDEFFSQSCAPGADPKSRLCALCAGDDQGLDKCVPNSKEKYYGYTGAFRCLAEDVGDVAFVKNDTVWENTNGESTADWAKNLNREDFRLLCLDGTRKPVTEAQSCHLAVAPNHAVVSRSDRAAHVKQVLLHQQALFGKNGKNCPDKFCLFKSETKNLLFNDNTECLAKLGGRPTYEEYLGTEYVTAIANLKKCSTSPLLEACAFLTR

One test addresses m7 (biotin on the biotin-acceptor peptide (biotinylated in vivo)). Put plainly: BLI; holo-Lf. (In general: Biolayer interferometry detects binding as a change in optical thickness at a sensor tip.)
For the test “bovine lactoferrin (Lf)”, the target named is B1. Put plainly: BLI; holo-Lf.

Our source for the Kd values is PMC11022072 (2024).

Molecule B1 showed a Kd in the test with m7 of 205 nM.

B2: N-lobe of M. bovis LbpB in the His-BAP-MBP vector (BLI construct) (domain or fragment)
chain: CGGGSFNNPSTIVIGQSKMIEKSDQSKDASAAKDDDNANADTKNKADSRLTMPVLGSVLAIPKRNQAYDKKKLTHLEEHVPLDENNITTAHTNPLPALTKELQERYEGGKIYQSDDKYKFVKAGWIFTGLRPDETIKTDEDTDQPKQYTKGDGYLYYYGDNPTTGLAKGVANYTGHWDFVTDVKRERESTITETTGRQAFGGGSGYKMDSGFGDEVGATSFAEQVFGQYAPRQGNHRAVFKADFDAKKLTGTLSTKQKAIASSPETYVDRYDIDATIKGNRFAGSAIAKNTKSSFLEPNFFNKNADNRLEGGFYGENAEELAGKFLTNDNSVFAVFAGKQD
modifications: biotin on the biotin-acceptor peptide (biotinylated in vivo)
Consider B2, for which, in the test with bovine lactoferrin (Lf), binding was put at a Kd of 980 nM.

For orientation: Kd means the free concentration of one partner at which half of the binding sites on the other are occupied at equilibrium, for simple one-to-one binding.
